Assay results from PMC3800186.
pKd: −log10 of the molar value.

Target: HIV-1 YU2 gp120 S375A mutant (HIV-1 YU2)
Test: SPR

Substance: Soluble CD4 (from UniProt P01730 26-396) (receptor)
- pKd: 7.39
